A mixed list of measured activities; the numbers were collected in NIAID ChemDB.

All rows: whole-cell or culture tests; species: Mycobacterium tuberculosis

Blank or dashed fields: not listed here. Conditions beyond the fields shown may differ between rows. MIC bound comes from a single tested concentration. Percent inhibition refers to the dose given; in toxicity tests it is the harm to the cells. ECn is the concentration giving n% inhibition of infection, replication or growth. A number after MIC or MFC names an inhibition level or a share of isolates.

compound,dose,cell line,read-out,changes,method,strain,value
CC(C)=CCc1c(O)cc(O)c(C(=O)/C=C/c2ccccc2)c1O,,,MIC,,,H37Rv,50 µg/mL
CC(O)CN1CC(C)N(CC(C)O)CC1C,,,MIC,,BACTEC,H37Rv,≥12.8 µg/mL
[C-]#[N+][C@@]12[C@@](C)(C=C)[C@H](Cl)C[C@@H]3C(C)(C)c4cccc5[nH]c(c(c45)[C@]31O)C(C)(C)[C@]21CO1,,,MIC90,,resazurin,H37Rv,2 µM
NC(=O)N/C=C1\NC(=O)C(CO)NC(=O)C(CO)NC(=O)C(N)CNC(=O)C(C2CCN=C(N)N2)NC1=O,,,MIC,,,H37Rv,5 µg/mL
COc1ccc2nc3cc(Cl)ccc3c(Nc3ccc(/C(N)=N/NC(N)=O)cc3)c2c1,,,EC50,,,H37Rv,>6.25 µg/mL
O=C(N/N=C/c1cccc([N+](=O)[O-])c1)c1ccccc1-c1nc2ccccc2[nH]1,0.031 µg/mL,,inhibition,,,H37Rv,52%
O=C(CN1CCCCC1)N/N=C\C(=O)c1ccccc1,,,MIC,,,,>50 µg/mL
COc1ccc(/C=N/NC(=O)c2ccccc2-c2nc3ccccc3[nH]2)cc1,,,EC50,,,H37Rv,>0.031 µg/mL
Cc1ccccc1OC(=O)c1ccc(N)cc1O,,,MIC,,,H37Rv,0.0313 µg/mL
CO[C@H]1/C=C/O[C@@]2(C)Oc3c(C)c(O)c4c(O)c(c(/C=N/N5CCN(C)CC5)c(O)c4c3C2=O)NC(=O)/C(C)=C\C=C\[C@H](C)[C@H](O)[C@@H](C)[C@@H](O)[C@@H](C)[C@H](OC(C)=O)[C@@H]1C,,,MIC,,,H37Rv,0.1 µg/mL
CCOc1ccccc1NC(=O)C(=O)CC(=O)c1sc(Nc2nnc(-c3ccc(Cl)c(Cl)c3)o2)nc1C,12.5 µg/mL,,inhibition,,BACTEC,H37Rv,0%
COc1ccc2nc3ccccc3c(Nc3ccc(S(=O)(=O)Nc4ncccn4)cc3)c2c1,,,EC50,,,H37Rv,<6.25 µg/mL
Cc1cc(=O)c2c(=O)n(-c3ccccc3)[nH]c2[nH]1,,,MIC,,BACTEC,H37Rv,≥12.5 µg/mL
Cc1cccc(C)c1N=Nc1c(C)[nH]n(C(=O)c2sc3ccc(Cl)cc3c2Cl)c1=O,40 µg/mL,,inhibition,,agar diffusion / agar,,27%
CCN1Cc2c(/C=C/c3ccccc3)nc3ccc(OC)cc3c2N(c2cccc(Cl)c2)C1,,,MIC bound,,BACTEC,H37Rv,>12.5 µg/mL
Cc1ccc(C(Cn2ccnc2)OCc2cccc3ccccc23)cc1,,,MIC,,,CIP103471,0.5 µg/mL
O=C(N/N=C/C=C/c1ccccc1)c1ccccc1-c1nc2ccccc2[nH]1,,,EC50,,,H37Rv,0.031 µg/mL
CC1=NN(c2nc(N)nc(C/C(N)=N/O)n2)C(C)(C)C1,6.25 µg/mL,,inhibition,,resazurin,H37Rv,23%
CC[C@H]1OC(=O)[C@H](C)[C@@H](O[C@H]2C[C@@](C)(OC)[C@@H](O)[C@H](C)O2)[C@H](C)[C@@H](O[C@@H]2O[C@H](C)C[C@H](N(C)C)[C@H]2O)[C@](C)(OC)C[C@@H](C)C(=O)[C@H](C)[C@@H](O)[C@]1(C)O,,,MIC90,,,30 isolates/HIV+,8 µg/mL
COc1ccc2nc3cc(Cl)ccc3c(Nc3ccc(S(=O)(=O)Nc4nccs4)cc3)c2c1,,,EC50,,,H37Rv,<6.25 µg/mL
C=C[C@@]1(C)CC[C@@]2(O)C3=C1C=C(C#N)C(C)(C)c1[nH]c4cccc(c4c13)C2(C)C,,,MIC90,,resazurin,H37Rv,>100 µM
Cc1ccc(C2=NNC(=O)/C(=C\c3ccccc3)C2)cc1,,,MIC,,resazurin,H37Rv,25 µg/mL
CCOC(=O)c1ccc(N=Nc2c(C)[nH]n(C(=O)c3sc4ccc(Cl)cc4c3Cl)c2=O)cc1,40 µg/mL,,inhibition,,agar diffusion / agar,,24%
Oc1ccc(Cl)cc1C(=S)Nc1ccc(Cl)cc1,,,MIC,,,My 331/88,2 µM
c1ccc(-c2ccc(COC(Cn3ccnc3)c3ccccc3)cc2)cc1,,,MIC,,,CIP103471,8 µg/mL
Cc1ccc(OC(=O)c2ccc(N)cc2O)cc1,,,MIC,,,H37Rv,0.0078 µg/mL
O=C(CN1CCCCC1)N/N=C\C(=O)c1ccc(Oc2ccccc2)cc1,,,MIC,,,,>50 µg/mL
CN[C@@H]1[C@H](O[C@H]2[C@H](O[C@H]3[C@H](O)[C@@H](O)[C@H](N=C(N)N)[C@@H](O)[C@@H]3N=C(N)N)O[C@@H](C)[C@]2(O)C=O)O[C@@H](CO)[C@H](O)[C@H]1O,,,MIC,,,H37Rv,0.37 µg/mL
O=C(NN1C(=O)C(Cl)C1c1ccc(Cl)cc1Cl)c1ccccc1-c1nc2ccccc2[nH]1,,,EC50,,,H37Rv,<0.031 µg/mL
CC(=O)C(CC(=O)Nc1cccc(C)c1)C(=O)Nc1cccc2ccccc12,5 µg/mL,,inhibition,,,H37Rv,0%
COc1ccc(C(C)=NOC(=O)c2c(-c3ccccc3Cl)noc2C)cc1CN1CCOCC1,,,MIC bound,,resazurin,H37Rv,>6.25 µg/mL
CCCCCCNc1ccc2cnn(C)c2c1,,,MIC,,resazurin,H37Rv,>100 µM
COc1ccc2nc3ccccc3c(Nc3ccc(S(N)(=O)=O)cc3)c2c1,,,EC50,,,H37Rv,<6.25 µg/mL
O=C(O)c1ccccc1C1NC(C(=O)O)CC2c3ccccc3NC21,,,MIC bound,,BACTEC,H37Rv,>12.5 µg/mL
COc1ccc2nc3cc(Cl)ccc3c(Nc3ccc(S(=O)(=O)Nc4nc(C)cc(C)n4)cc3)c2c1,,,EC50,,,H37Rv,<6.25 µg/mL
Cc1cccnc1NC(=O)c1csnn1,12.5 µg/mL,,inhibition,,BACTEC,H37Rv,29%
CC(C)(C)c1ccc(COC(Cn2ccnc2)c2ccccc2)cc1,,,MIC,,,CIP103471,1 µg/mL
CC(C)OC(=O)CC1COP(=O)(CO[C@H](C)Cn2cnc3c(N(C(=O)c4ccccc4)C(=O)c4ccccc4)ncnc32)OC1,1 µM,HepaRG,inhibition,,PCR,Genotype D,≤30%
O=C(N/N=C/c1ccc(Cl)cc1Cl)c1ccccc1-c1nc2ccccc2[nH]1,0.031 µg/mL,,inhibition,,,H37Rv,96%
CO[C@H]1/C=C/O[C@@]2(C)Oc3c(C)c(O)c4c(O)c(cc(O)c4c3C2=O)NC(=O)/C(C)=C\C=C\[C@H](C)[C@H](O)[C@@H](C)[C@@H](O)[C@@H](C)[C@H](OC(C)=O)[C@@H]1C,,,MIC,,,H37Rv,0.01 µg/mL
CN(C)CCCNc1cccc2c1C(=O)c1cccc(NCCCN(C)C)c1C2=O,12.5 µg/mL,,inhibition,,BACTEC,H37Rv,28%
CCn1cc(C(=O)O)c(=O)c2cc(F)c(N3CCN(C)CC3)cc21,,,MIC,,,Isolate 870729,2 µg/mL
Cc1cc(=O)[nH]c2nc3ccccc3n12,,,MIC bound,,resazurin,H37Rv,>6.25 µg/mL
COc1cc(/C=C2/CC(c3ccc(C)cc3)=NNC2=O)ccc1O,,,MIC,,resazurin,H37Rv,12.5 µg/mL
CC1CCC(C(C)C2C(O)CC3C4CCC5CC(O)CCC5(C)C4CCC32C)NC1,12.5 µg/mL,,inhibition,,BACTEC,H37Rv,12%
CC(C)c1ccc(NC(=S)c2cc(Cl)ccc2O)cc1,,,MIC,,,My 331/88,1 µM
O=C1c2ccccc2C(=O)c2cc(C[P+](c3ccccc3)(c3ccccc3)c3ccccc3)ccc21,,,MIC,Multidrug-resistant,resazurin,FJ05189,1 µg/mL
O=C(NN1C(=O)C(Cl)C1c1ccc(Cl)cc1)c1ccccc1-c1nc2ccccc2[nH]1,0.031 µg/mL,,inhibition,,,H37Rv,97%
O=C([O-])c1c(Cl)c(Cl)c(Cl)c(Cl)c1-c1c2cc(Br)c(=O)c(Br)c-2oc2c(Br)c([O-])c(Br)cc12.[Na+].[Na+],,,MIC bound,,BACTEC,H37Rv,>12.5 µg/mL
COc1ccc(NC(=O)CC(C(C)=O)C(=O)Nc2cccc3ccccc23)cc1,5 µg/mL,,inhibition,,,H37Rv,0%
Cc1ccc(NP2(N3CC3)=NP(Nc3ccc(C)cc3)(N3CC3)=NP(N3CC3)(N3CC3)=N2)cc1,,,MIC,,BACTEC,H37Rv,128 µg/mL
Cc1nc2ccccc2nc1C(=O)/C=C/c1ccc([N+](=O)[O-])cc1,,,EC50,,resazurin,H37Rv,>250 µM
COC(=O)C1=CO[C@@H](C)[C@@H]2CN3CCc4c([nH]c5cc(OC)ccc45)[C@@H]3C[C@H]12,,,MIC bound,,BACTEC,H37Rv,>128 µg/mL
C[C@H](c1ccccc1)N(CC(N)=O)C(=O)CN(C(=O)CNCCC[NH3+])[C@@H](C)c1ccccc1,,,MIC,,resazurin,H37Ra,14.1 µM
O=C(CN1CCCC1)N/N=C\C(=O)c1ccccc1,,,MIC,,,,>50 µg/mL
Clc1ccc(C(Cn2ccnc2)OC/C=C/c2ccccc2)cc1,,,MIC,,,CIP103471,8 µg/mL
CCCOC(=O)c1ccc(NC(=O)CCC(=O)O)cc1O,,,MIC,,,H37Rv,>20 µg/mL
CCCCc1ccc(NC(=S)c2cc(Cl)ccc2O)cc1,,,MIC,,,My 331/88,4 µM
Cc1[nH]n(C(=O)c2sc3ccc(Cl)cc3c2Cl)c(=O)c1N=Nc1cccc([N+](=O)[O-])c1,40 µg/mL,,inhibition,,agar diffusion / agar,,46%
NCCC[C@H](N)CC(=O)N[C@H]1CNC(=O)[C@H]([C@H]2C[C@H](O)NC(N)=N2)NC(=O)/C(=C/NC(N)=O)NC(=O)[C@H](CO)NC(=O)[C@H](CO)NC1=O,,,MIC,,,Isolate VIM-R/6,10 µg/mL
CCOC(=O)c1ccc(NC(=O)C(CC(=O)Nc2cccc(C)c2)C(C)=O)cc1,5 µg/mL,,inhibition,,,H37Rv,0%
O=C(CN1CCOCC1)N/N=C\C(=O)c1ccccc1,,,MIC,,,,>50 µg/mL
COC(=O)NC12CC3CC(C(C)O1)C2N(Cc1ccccc1)C3,,,MIC bound,,BACTEC,H37Rv,>12.5 µg/mL
C[C@@H]1CN(c2c(F)c(N)c3c(=O)c(C(=O)O)cn(C4CC4)c3c2F)C[C@H](C)N1,,,MIC,,,INH PAS SM resistant,0.1 µg/mL
CCc1ccc(NC(=S)c2cc(Cl)ccc2O)cc1,,,MIC,,,My 331/88,2 µM
CO[C@H]1/C=C/O[C@@]2(C)Oc3c(C)c(O)c4c(O)c(c(/C=N/N=C/N(C)C)c(O)c4c3C2=O)NC(=O)/C(C)=C\C=C\[C@H](C)[C@H](O)[C@@H](C)[C@@H](O)[C@@H](C)[C@H](OC(C)=O)[C@@H]1C,,,MIC,,,H37Rv,0.02 µg/mL
O=C1NN=C(c2ccc(Cl)cc2)C/C1=C/c1ccccc1,,,MIC,,resazurin,H37Rv,25 µg/mL
CCn1cc(C(=O)O)c(=O)c2cc(F)c(N3CCNCC3)nc21,,,MIC,,,H37Rv,5 µg/mL
Cc1cc(=O)[nH]c2[nH][nH]c(=O)c12,,,MIC bound,,BACTEC,H37Rv,>12.5 µg/mL
NCC[C@H](O)C(=O)N[C@@H]1C[C@H](N)[C@@H](O[C@H]2O[C@H](CN)[C@@H](O)[C@H](O)[C@H]2O)[C@H](O)[C@H]1O[C@H]1O[C@H](CO)[C@@H](O)[C@H](N)[C@H]1O,,,MIC90,,,30 isolates/HIV+,16 µg/mL
CSc1ccc(C2OC(c3sc4ccc(Cl)cc4c3Cl)=NN2C(C)=O)cc1,40 µg/mL,,inhibition,,agar diffusion / agar,,5%
COc1ccc2nc3ccccc3c(Nc3ccc(/C(N)=N/NC(N)=S)cc3)c2c1,,,EC50,,,H37Rv,>6.25 µg/mL
CC/C(=N\OCc1ccccc1)C(=O)NNS(=O)(=O)c1ccc(C)cc1,12.5 µg/mL,,inhibition,,BACTEC,H37Rv,4%
O=C(O)/C=C\C(=O)Nc1ccc(C(=O)Oc2ccccc2)c(O)c1,,,MIC,,,H37Rv,0.25 µg/mL
COC(=O)[C@@]12OC[C@]34[C@H]([C@@H](O)[C@@H]1O)[C@@]1(C)CC(=O)C(O)=C(C)[C@@H]1C[C@H]3OC(=O)[C@H](OC(=O)C=C(C)C)[C@@H]24,,,MIC bound,,BACTEC,H37Rv,>12.8 µg/mL
O=C(N/N=C/c1ccco1)c1ccccc1-c1nc2ccccc2[nH]1,0.031 µg/mL,,inhibition,,,H37Rv,43%
CC(=O)Nn1c(N)nc2ccccc21,,,MIC bound,,BACTEC,H37Rv,>12.5 µg/mL
COc1ccc2nc3cc(Cl)ccc3c(Nc3ccc(C(C)=O)cc3)c2c1,,,EC50,,,H37Rv,<6.25 µg/mL

11 of the rows above, restated:

compound | dose | cell line | read-out | changes | method | strain | value
CCn1cc(C(=O)O)c(=O)c2cc(F)c(N3CCN(C)CC3)cc21 |  |  | MIC |  |  | Isolate 870729 | 2 µg/mL
[C-]#[N+][C@@]12[C@@](C)(C=C)[C@H](Cl)C[C@@H]3C(C)(C)c4cccc5[nH]c(c(c45)[C@]31O)C(C)(C)[C@]21CO1 |  |  | MIC90 |  | resazurin | H37Rv | 2 µM
NCCC[C@H](N)CC(=O)N[C@H]1CNC(=O)[C@H]([C@H]2C[C@H](O)NC(N)=N2)NC(=O)/C(=C/NC(N)=O)NC(=O)[C@H](CO)NC(=O)[C@H](CO)NC1=O |  |  | MIC |  |  | Isolate VIM-R/6 | 10 µg/mL
CC1=NN(c2nc(N)nc(C/C(N)=N/O)n2)C(C)(C)C1 | 6.25 µg/mL |  | inhibition |  | resazurin | H37Rv | 23%
C[C@@H]1CN(c2c(F)c(N)c3c(=O)c(C(=O)O)cn(C4CC4)c3c2F)C[C@H](C)N1 |  |  | MIC |  |  | INH PAS SM resistant | 0.1 µg/mL
O=C1NN=C(c2ccc(Cl)cc2)C/C1=C/c1ccccc1 |  |  | MIC |  | resazurin | H37Rv | 25 µg/mL
COc1ccc2nc3cc(Cl)ccc3c(Nc3ccc(S(=O)(=O)Nc4nccs4)cc3)c2c1 |  |  | EC50 |  |  | H37Rv | <6.25 µg/mL
Cc1cc(=O)[nH]c2nc3ccccc3n12 |  |  | MIC bound |  | resazurin | H37Rv | >6.25 µg/mL
O=C(NN1C(=O)C(Cl)C1c1ccc(Cl)cc1Cl)c1ccccc1-c1nc2ccccc2[nH]1 |  |  | EC50 |  |  | H37Rv | <0.031 µg/mL
CCc1ccc(NC(=S)c2cc(Cl)ccc2O)cc1 |  |  | MIC |  |  | My 331/88 | 2 µM
c1ccc(-c2ccc(COC(Cn3ccnc3)c3ccccc3)cc2)cc1 |  |  | MIC |  |  | CIP103471 | 8 µg/mL